Taken from: PubChem BioAssay AID1259414 (Drosophila RNAi Screening Center, 2018)

- Assay: 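Fly genes that alter Wolbachia amount inside host cells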 (primary screen)
- Cells: Drosophila JW18 cells infected with Wolbachia
- Reagents: long dsRNA against Drosophila genes, 0.25 µg dsRNA per well of a 384-well plate
- Time to read-out: 5 days
- Conditions: cells persistently infected with Wolbachia before knock-down; no added drug
- Measurement: 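Imaged fluorescence in situ signal for Wolbachia 23S rRNA per DAPI-counted host cell, given as a robust z-score within each plate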
- Reading the numbers: Wolbachia per cell robust z: higher = more Wolbachia per host cell than the plate typical
- Hit rule: 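Active if absolute robust z reaches 1.5 in two or more of three replicates, leaving out multi- or no-target dsRNAs, genes unexpressed in JW18 and A1 wells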
The deposit covers about 24,000 reagents; this is an unselected part of those that have a named target and a result. In the full data, about 1,210 (5%) were called active. 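Inactive calls also include excluded dsRNAs with several or no targets, genes unexpressed in JW18, and well A1, regardless of score.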 A number with no mark means an inactive call. A plus sign joins genes that one reagent is predicted to hit.

| gene knocked down | dsRNA | Wolbachia per cell robust z, rep 1 | Wolbachia per cell robust z, rep 2 | Wolbachia per cell robust z, rep 3 |
| --- | --- | --- | --- | --- |
| CG34230 | DRSC38877 | -0.458 | -2.65 | -0.49 |
| shg | DRSC04714 | 0.418 | -2.51 | 1.01 |
| shg | DRSC27751 | -1.82 | 0.603 | 0.16 |
| shg | DRSC38948 | -2.5 | 0.0821 | 0.493 |
| Ire1 | DRSC15606 | -1.29 | -0.616 | 0.13 |
| Grx3 | DRSC02966 | -0.353 | 0.369 | -0.218 |
| CG7631 | DRSC01873 | 1.06 | 0.228 | 0.391 |
| Nbr | DRSC03166 | -0.056 | -3.19 | 0.569 |
| zf30C | DRSC03641 | 0.551 | -1.19 | 1.65 |
| cato | DRSC07589 | 0.141 | -3.17 | -2.3 |
| CG13676 | DRSC10035 | -0.189 | 0.247 | 0.162 |
| CG3529 | DRSC10369 | 0.287 | 0.673 | 0.551 |
| CG3529 | DRSC25300 | 1.18 | 1.27 | 0.325 |
| Lsp2 | DRSC09841 | 0.637 | -0.321 | -0.452 |
| Lsp2 | DRSC11216 | 0.926 | 0.619 | 0.574 |
| Lsp2 | DRSC24021 | -0.288 | -1.34 | -0.709 |
| unc-119 | DRSC18846 | 0.0325 | 0.337 | 0.19 |
| unc-119 | DRSC39157 | -3.24 | 0.181 | -0.626 |
| CG17782 | DRSC23227 | 0.345 | 0.61 | 0.478 |
| CG30375 | DRSC06834 | -0.336 | 1.49 | -0.3 |
| CG14431 | DRSC17925 | 1.09 | 0.505 | -2.05 |
| CG14431 | DRSC23593 | 0.434 | 0.106 | 1.21 |
| CG14841 | DRSC14965 | 0.0969 | -0.926 | -0.627 |
| CG14841 | DRSC27235 | -0.165 | -1.14 | -0.285 |
| wmd | DRSC04436 | 0.154 | -5.25 | -1.29 |
| wmd | DRSC29254 | -0.939 | -1.13 | -0.66 |
| Coq9 | DRSC22913 | -3.56 | 0.23 | -0.138 |
| fog | DRSC20646 | -1.98 | 0.62 | 0.418 |
| PGRP-LF + UGP | DRSC10418 | -0.764 | 0.836 | -0.416 |
| Chchd3 | DRSC16981 | 0.797 | 0.888 | 1.42 |
| Chchd3 | DRSC26451 | 0.198 | 0.994 | 0.391 |
| ACXA | DRSC00844 | -1.54 | -2.06 | 1.22 |
| ACXA | DRSC25338 | 1.23 | -1.18 | 0.98 |
| Prx1 | DRSC10741 | 0.0502 | -0.44 | 0.546 |
| Prx1 | DRSC24401 | -9.81 | -0.0415 | -0.766 |
| CG34057 | DRSC08375 | 0.841 | -0.911 | -0.257 |
| Sox21b | DRSC23005 | -0.397 | -0.238 | -0.231 |
| Sox21b | DRSC25803 | -0.306 | -0.491 | -0.797 |
| CG31161 | DRSC16144 | -3.99 | 0.367 | 1.22 |
| CG31161 | DRSC25099 | 0.714 | 1.11 | 0.972 |
| CG13720 | DRSC08329 | 0.438 | -0.979 | 0.501 |
| CG13720 | DRSC23787 | 0.267 | -1.41 | -0.293 |
| Ugt49C1 | DRSC04252 | 0.832 | 0.895 | 0.522 |
| Ugt49C1 | DRSC27301 | -0.176 | -0.938 | -0.0737 |
| Syx1A | DRSC15359 | 3.05 (active) | 1.42 | 5.42 |
| Syx1A | DRSC21554 | 0.676 | 0.478 | 0.59 |
| CG9951 | DRSC11105 | 0.763 (active) | -6.8 | -4.17 |
| TMEM216 + CG11760 | DRSC14375 | -0.63 | 0.155 | -0.112 |
| Atg101 | DRSC20020 | 0.33 | -0.0752 | 0.417 |
| PheRS-m | DRSC05915 | 0.247 | 0.72 | -2.16 |
| sdt | DRSC17555 | -1.32 | 0.209 | -0.0557 |
| sdt | DRSC17556 | -0.31 | 0.906 | -0.639 |
| sdt | DRSC17860 | -0.243 | 0.0385 | -0.102 |
| sdt | DRSC17861 | 0.0293 | -0.911 | -1.53 |
| sdt | DRSC18022 | -5.14 | 0.656 | 1.06 |
| sdt | DRSC18108 | 0.27 | -0.584 | -0.908 |
| sdt | DRSC26851 | -6.46 | 0.137 | -0.651 |
| CG40470 | DRSC37732 | 0.689 | 1.28 | 0.492 |
| CG9992 | DRSC20226 | 0.0828 | -1.11 | -0.174 |
| CG9992 | DRSC21643 | -1.66 | -0.551 | 0.0125 |
| Naxe | DRSC18251 | -6.05 (active) | -7.27 | -2 |
| Cyp12d1-d + Cyp12d1-p | DRSC21507 | -1.3 | -1.1 | -1.36 |
| CG12084 | DRSC08247 | 0.451 | 0.662 | -0.266 |
| CG12084 | DRSC26814 | 0.0913 | 0.211 | 0.201 |
| Vps13 | DRSC06817 | 0.495 | 0.0494 | -7.26 |
| Vps13 | DRSC29275 | -1.77 | -1.02 | -1.32 |
| PCNA2 | DRSC02030 | -1.16 | -1.77 | -0.0171 |
| Septin5 | DRSC06843 | -0.651 | 0.69 | 0.0553 |
| Septin5 | DRSC29954 | -0.16 | -0.14 | -4.46 |

Records listed above called active (3):
| gene knocked down | dsRNA | Wolbachia per cell robust z, rep 1 | Wolbachia per cell robust z, rep 2 | Wolbachia per cell robust z, rep 3 |
| --- | --- | --- | --- | --- |
| Syx1A | DRSC15359 | 3.05 (active) | 1.42 | 5.42 |
| CG9951 | DRSC11105 | 0.763 (active) | -6.8 | -4.17 |
| Naxe | DRSC18251 | -6.05 (active) | -7.27 | -2 |
